Reference: patent US20220356230A1

Tests used:
Settings in all cases: remark: other sources report otherwise
[1] = target: SARS-CoV-2 Spike Protein (RBD)([…]).mmH (SARS-CoV-2)
[2] = target: T1, Bt-SARS-CoV-2 Spike Protein (RBD)([…]).mFc (SARS-CoV-2); test: Luminex bead assay, antibody supernatant, biotinylated antigen on microspheres
[3] = target: T2, Bt-SARS-CoV-2 Spike Protein (RBD)([…]).hFc (SARS-CoV-2); test: as above
[4] = target: T1, Bt-SARS-CoV-2 Spike Protein …
[5] = target: T2, Bt-SARS-CoV-2 Spike Protein …
[6] = target: T3, SARS-COV-2-S RBD extracellular domain expressed with a C-terminal myc-myc-hexahistidine (SARS-COV-2 RBD-MMH) (SARS-CoV-2)
[7] = target: T3, SARS-COV-2-S RBD extracellular domain …; remark: listed apart in the source
[8] = target: SARS-CoV-2 Spike Protein (RBD)([…]).mmH (SARS-CoV-2); test: Luminex bead assay, supernatant on antigen microspheres
[9] = target: SARS-CoV-2 Spike Protein (RBD)([…]).mmH (SARS-CoV-2); test: as above; remark: listed apart in the source

B1: mAb10920 (antibody)
heavy: QVQLVESGGGVVQPGRSLRLSCAASGFTFSYYGMHWVRQAPGKGLEWVAVIWYDGSNKFYADSVKGRFTISRDNSKNTLYLQMNSLRAEDTAVYYCAAARPGYYYGMDVWGQGTTVTVSSASTKGPSVFPLAPSSKSTSGGTAALGCLVKDYFPEPVTVSWNSGALTSGVHTFPAVLQSSGLYSLSSVVTVPSSSLGTQTYICNVNHKPSNTKVDKKV[human IgG1 Fc left out here]
light: DIQMTQSPSSLSASVGDRVTITCRASQGISNYLAWFQQKPGKAPNSLIYAASSLQRGVPSKFSGSGSGTDFTLTISSLQPEDFATYYCQQYNSYPRTFGQGTKVEIKRTVAAPSVFIFPPSDEQLKSGTASVVCLLNNFYPREAKVQWKVDNALQSGNSQESVTEQDSKDSTYSLSSTLTLSKADYEKHKVYACEVTHQGLSSPVTKSFNRGEC
For B1, the Binding signal (MFI) [1] was 34800 MFI and 34400 MFI, the Binding signal (MFI) [2] was 20300 MFI and the Binding signal (MFI) [3] was 31700 MFI.

B2: mAb10989 (antibody)
heavy: QVQLVQSGAEVKKPGASVKVSCKASGYIFTGYYMHWVRQAPGQGLEWMGWINPNSGGANYAQKFQGRVTLTRDTSITTVYMELSRLRFDDTAVYYCARGSRYDWNQNNWFDPWGQGTLVTVSSASTKGPSVFPLAPSSKSTSGGTAALGCLVKDYFPEPVTVSWNSGALTSGVHTFPAVLQSSGLYSLSSVVTVPSSSLGTQTYICNVNHKPSNTKVDKKV[human IgG1 Fc left out here]
light: QSALTQPASVSGSPGQSITISCTGTSSDVGTYNYVSWYQQHPGKAPKLMIFDVSNRPSGVSDRFSGSKSGNTASLTISGLQAEDEADYYCSSFTTSSTVVFGGGTKLTVLGQPKAAPSVTLFPPSSEELQANKATLVCLISDFYPGAVTVAWKADSSPVKAGVETTTPSKQSNNKYAASSYLSLTPEQWKSHRSYSCQVTHEGSTVEKTVAPTECS
In the case of B2, the Binding signal (MFI) [4] is reported as 11200 MFI and the Binding signal (MFI) [5] is reported as 16100 MFI.

B3: mAb11010 (antibody)
heavy: QVQLVESGGGVVQPGRSLRLSCAASGFTFSSYGMHWVRQAPGKGLEWVAVISYDGSYKYYADSVKGRFTISRDNSKNTLYLQMNSLRAEDTAVYYCAIDGGTVTTIFDYWGQGTLVTVSSASTKGPSVFPLAPSSKSTSGGTAALGCLVKDYFPEPVTVSWNSGALTSGVHTFPAVLQSSGLYSLSSVVTVPSSSLGTQTYICNVNHKPSNTKVDKKV[human IgG1 Fc left out here]
light: [about 100 residues left out here][about 120 residues left out here]
In the case of B3, the t½ [6] is reported as 3 min and 1.5 min and the t½ [7] is reported as 3 min and 1.6 min.

B4: mAb10965 (antibody)
heavy: EVQLVESGGGLIQPGGSLRLSCAASVFTVSYNYMSWVRQAPGKGLEWVSVIYSGGSTYYADSVKGRFTISRDNSKNTLYLQMNSLRAEDTAVYYCARALPGWGGSFEYFDYWGQGTLVTVSSASTKGPSVFPLAPSSKSTSGGTAALGCLVKDYFPEPVTVSWNSGALTSGVHTFPAVLQSSGLYSLSSVVTVPSSSLGTQTYICNVNHKPSNTKVDKKV[human IgG1 Fc left out here]
light: [about 100 residues left out here][about 100 residues left out here]
For B4, the Binding signal (MFI) [8] was 26900 MFI and the Binding signal (MFI) [9] was 30800 MFI.

B5: mAb10954 (antibody)
heavy: EVQLVESGGGLVQPGGSLRLSCAASGITVSSNYMSWVRQAPGKGLEWVSLIYSGGSTYYADSVKGRFTISRDNSKNTLYLQMNSLRVEDTAVYYCARDHGMAAAGYNYWGQGTLVTVSSASTKGPSVFPLAPSSKSTSGGTAALGCLVKDYFPEPVTVSWNSGALTSGVHTFPAVLQSSGLYSLSSVVTVPSSSLGTQTYICNVNHKPSNTKVDKKV[human IgG1 Fc left out here]
light: DIQMTQSPSSLSASVGDRVTITCQASQDINKYLNWYQQKPGKAPKLLIYDASNLETGVPSRFSGSGSGTDFTFTINSLQPEDFATYFCQQYDNLPPAFGQGTKVEIKRTVAAPSVFIFPPSDEQLKSGTASVVCLLNNFYPREAKVQWKVDNALQSGNSQESVTEQDSKDSTYSLSSTLTLSKADYEKHKVYACEVTHQGLSSPVTKSFNRGEC
B5 showed a Binding signal (MFI) [8] of 28300 MFI and a Binding signal (MFI) [9] of 30400 MFI.

B6: mAb10971 (antibody)
heavy: EVQLVESGGGLIQPGGSLRLSCAASGVTVSSNYMSWVRQAPGKGLEWVSVIYSGGSTFYSDSVKGRFSISRDNSKNTLYLQMNSLRAEDTAVYYCARDLYYYGMDVWGQGTTVTVSSASTKGPSVFPLAPSSKSTSGGTAALGCLVKDYFPEPVTVSWNSGALTSGVHTFPAVLQSSGLYSLSSVVTVPSSSLGTQTYICNVNHKPSNTKVDKKV[human IgG1 Fc left out here]
light: DIQLTQSPSFLSASVGDRVTITCRASQGISTYLAWYQQKPGKAPKLLIYAASTLQSGVPSRFSGSGSGTEFTLTISSLQPEDFATYYCQQLDSYPGLTFGGGTKVEIKRTVAAPSVFIFPPSDEQLKSGTASVVCLLNNFYPREAKVQWKVDNALQSGNSQESVTEQDSKDSTYSLSSTLTLSKADYEKHKVYACEVTHQGLSSPVTKSFNRGEC
Binder B6 has a Binding signal (MFI) [4] of 16700 MFI, a Binding signal (MFI) [5] of 24600 MFI and a Binding signal (MFI) [8] of 28800 MFI. For the same binder, the t½ [6] was 12.2 min and 9.1 min, the t½ [7] was 12.2 min and 6.8 min and the Binding signal (MFI) [9] was 29400 MFI.

B7: mAb10964 (antibody)
heavy: QVQLQESGPGLVKPSETLSLTCTVSGGSINNYYWIWIRQPPGKGLEWIGYIYHSGSTNYNPSLKSRVTISVDTSKNQFSLKVSSVTAADTAVYYCANMVRGVYEDDYWGQGTLVTVSSASTKGPSVFPLAPSSKSTSGGTAALGCLVKDYFPEPVTVSWNSGALTSGVHTFPAVLQSSGLYSLSSVVTVPSSSLGTQTYICNVNHKPSNTKVDKKV[human IgG1 Fc left out here]
light: DIQMTQSPSSLSASVGDRVTITCRASQSISNYLNWYQQKPGKAPKLLIFAASSLRSGVPSRFSGSGSGTDFTLTISSLHPEDFATYYCQQNYNTPLTFGPGTKVDIKRTVAAPSVFIFPPSDEQLKSGTASVVCLLNNFYPREAKVQWKVDNALQSGNSQESVTEQDSKDSTYSLSSTLTLSKADYEKHKVYACEVTHQGLSSPVTKSFNRGEC
B7 gave a Binding signal (MFI) [4] of 19200 MFI, a Binding signal (MFI) [5] of 27700 MFI and a Binding signal (MFI) [8] of 28900 MFI. The Binding signal (MFI) [9] was 31800 MFI.

B8: mAb10985 (antibody)
heavy: EVQLVESGGGLVQPGRSLRLSCAASGFTFDDYAMHWVRQAPGKGLEWVSGISWNRGSIGYADSVKGRFTISRDNAKNSLYLQMSSLRAEDTALYYCAKDGERWDSVVVPSARNGMDVWGQGTTVTVSSASTKGPSVFPLAPSSKSTSGGTAALGCLVKDYFPEPVTVSWNSGALTSGVHTFPAVLQSSGLYSLSSVVTVPSSSLGTQTYICNVNHKPSNTKVDKKV[human IgG1 Fc left out here]
light: QSVLTQPPSVSGAPGQRVTISCTGSSSNIGAGYDVHWYQQLPGTAPKLLIYGNSNRPSGVPDRFSGSKSGTSASLAITGLQAEDEADYYCQSYDSSLSGSYVFGTGTKVTVLGQPKAAPSVTLFPPSSEELQANKATLVCLISDFYPGAVTVAWKADSSPVKAGVETTTPSKQSNNKYAASSYLSLTPEQWKSHRSYSCQVTHEGSTVEKTVAPTECS
Work on B8 yielded a Binding signal (MFI) [4] of 15500 MFI, a Binding signal (MFI) [5] of 24800 MFI and a Binding signal (MFI) [8] of 27900 MFI. It also gave a Binding signal (MFI) [9] of 30200 MFI.

B9: mAb10955 (antibody)
heavy: EVQLVESGGGLVQPGGSLRVSCAASGFTVSRNYMSWVRQAPGKGLEWVSVIYSGGSTFYADSVKGRFTISRDNSKNTLYLQMNSLRAEDTAIYYCARYIPRFDPWGQGTLVTVSSASTKGPSVFPLAPSSKSTSGGTAALGCLVKDYFPEPVTVSWNSGALTSGVHTFPAVLQSSGLYSLSSVVTVPSSSLGTQTYICNVNHKPSNTKVDKKV[human IgG1 Fc left out here]
light: DIQMTQSPSSLSASVGDRVTITCQASQDISNYLNWFQQKPGRAPKLLIYDASNLETGVPSRFSGSGSGTDFTFTISSLQPEDIATYYCQQYDNLPITFGQGTRLEIKRTVAAPSVFIFPPSDEQLKSGTASVVCLLNNFYPREAKVQWKVDNALQSGNSQESVTEQDSKDSTYSLSSTLTLSKADYEKHKVYACEVTHQGLSSPVTKSFNRGEC
Work on B9 yielded a Binding signal (MFI) [4] of 16800 MFI, a Binding signal (MFI) [5] of 24700 MFI and a Binding signal (MFI) [8] of 28500 MFI. The t½ [6] was 0.8 min, the t½ [7] was 0.6 min and the Binding signal (MFI) [9] was 29600 MFI.

B10: mAb10966 (antibody)
heavy: EVQLVESGGGLVQPGGSLRLSCAASGLTVSSNYMSWVRQAPGKGLEWVSVIYSGGSTFYADSVKGRFTISRDNSKNTLYLQMNSLRPEDTAVYYCAREGRIAATGYGMDVWGQGTTVTVSSASTKGPSVFPLAPSSKSTSGGTAALGCLVKDYFPEPVTVSWNSGALTSGVHTFPAVLQSSGLYSLSSVVTVPSSSLGTQTYICNVNHKPSNTKVDKKV[human IgG1 Fc left out here]
light: B9 light with F36Y, R42K, E55G, G66R, Q89H, I96Q, Q100P, R103K, L104V, E105D
For B10, the Binding signal (MFI) [4] was 17900 MFI, the Binding signal (MFI) [5] was 25100 MFI and the Binding signal (MFI) [8] was 27400 MFI. The Binding signal (MFI) [9] was 30900 MFI.

Residue numbers refer to the chain shown, from its start. Values joined by “and” are separate entries in the source; they are usually repeats but may differ in a detail not shown here. Equal entries are not always repeated. Where two headings read alike, the source gives them in different places.
